Measured values: US20030220338A1, “Fungal efflux pump inhibitors” (priority 2001, published 2003)

Legend:
[1] = tested on: Candida albicans YEM15 (over-expressing the CDR1 and CDR2 pumps); experiment: Checkerboard / broth microdilution assay, potentiation of fluconazole vs. C. albicans; conditions: for MIC: Candida albicans, 48 h; for MPC8 = concentration of efflux pump inhibitor necessary to reduce the fluconazole MIC 8-fold: in combination with fluconazole, strain YEM15
[2] = tested on: C. glabrata YEM19 (over-expressing the CgCDR1 and CgCDR2 pumps); experiment: Checkerboard / broth microdilution assay, potentiation of fluconazole vs. C. glabrata; conditions: for MIC: Nakaseomyces glabratus, 48 h; for MPC8: in combination with fluconazole, strain YEM19

Row | Compound | MIC [1] [µg/mL] | MPC8 = concentration of efflux pump inhibitor necessary to reduce the fluconazole MIC 8-fold [1] [µg/mL] | MIC [2] [µg/mL] | MPC8 [2] [µg/mL]
1 | COc1ccc(N(C(=O)Nc2ccc(F)cc2)C(C)c2nc3cc(F)c(F)cc3c(=O)n2N2CCN(C)CC2)c(OC)c1 (stereo not drawn) [Compound 64] | > 32 | 0.125 | > 32 | 0.5
2 | COc1ccc(N(C(=O)Nc2ccc(Cl)cc2)C(C)c2nc3cc(F)c(F)cc3c(=O)n2N2CCN(C)CC2)c(OC)c1 (stereo not drawn) [Compound 65] | 32 | 0.0625 | > 32 | 0.25
3 | COc1ccc(N(C(=O)Nc2ccc(F)cc2)C(C)c2nc3ccc(Cl)cc3c(=O)n2N2CCN(C)CC2)c(OC)c1 (stereo not drawn) [Compound 66] | > 32 | 0.25 | > 32 | 2
4 | COc1ccc(N(C(=O)Nc2ccc(F)cc2)C(C)c2nc3ccc(F)cc3c(=O)n2N2CCN(C)CC2)c(OC)c1 (stereo not drawn) [Compound 67] | > 32 | 1 | > 32 | 2
5 | CC(c1nc2ccc(F)cc2c(=O)n1N1CCN(C)CC1)N(C(=O)Nc1ccc(F)cc1)c1ccc(F)cc1F (stereo not drawn) [Compound 68] | > 32 | 2 | > 32 | 16
6 | COc1ccc(N(C(=O)Nc2ccc(Cl)cc2)C(C)c2nc3ccc(C)cc3c(=O)n2N2CCN(C)CC2)c(OC)c1 (stereo not drawn) [Compound 69] | > 32 | 0.125 | > 32 | 2
7 | COc1ccc(N(C(=O)Nc2ccc(F)cc2)C(C)c2nc3ccc(C)cc3c(=O)n2N2CCN(C)CC2)c(OC)c1 (stereo not drawn) [Compound 70] | > 32 | 0.5 | > 32 | 4
8 | COc1ccc(N(C(=O)Nc2ccc(C(F)(F)F)cc2)C(C)c2nc3ccc(C)cc3c(=O)n2N2CCN(C)CC2)c(OC)c1 (stereo not drawn) [Compound 71] | 16 | 2 | > 32 | 4
9 | CCC(=O)Oc1ccc2nc(C(C)N(C(=O)Nc3ccc(F)cc3)c3ccc(OC)cc3OC)n(N3CCN(C)CC3)c(=O)c2c1 (stereo not drawn) [Compound 72] | > 32 | 4 | > 32 | 4
10 | COc1ccc(N(C(=O)Nc2ccc(F)cc2)C(C)c2nc3ccc(OC)cc3c(=O)n2N2CCN(C)CC2)c(OC)c1 (stereo not drawn) [Compound 73] | > 32 | 0.5 | > 32 | 2
11 | COc1ccc(N(C(=O)Nc2ccc(Cl)cc2)C(C)c2nc3ccc(OC)cc3c(=O)n2N2CCN(C)CC2)c(OC)c1 (stereo not drawn) [Compound 74] | > 32 | 0.25 | > 32 | 1
12 | COc1ccc(N(C(=O)Nc2ccc(C(F)(F)F)cc2)C(C)c2nc3cc(Cl)ccc3c(=O)n2N2CCN(C)CC2)c(OC)c1 (stereo not drawn) [Compound 75] | 16 | 0.5 | 16 | 0.5
13 | COc1ccc(N(C(=O)Nc2ccc(Cl)cc2)C(C)c2nc3cc(Cl)ccc3c(=O)n2N2CCN(C)CC2)c(OC)c1 (stereo not drawn) [Compound 76] | > 32 | 0.25 | > 32 | 0.5
14 | COc1ccc(N(C(=O)Nc2ccc(F)cc2)C(C)c2nc3cc(Cl)ccc3c(=O)n2N2CCN(C)CC2)c(OC)c1 (stereo not drawn) [Compound 77] | > 32 | 0.125 | > 32 | 0.5
15 | COc1ccc(N(C(=O)Nc2ccc(C)cc2)C(C)c2nc3cc(Cl)ccc3c(=O)n2N2CCN(C)CC2)c(OC)c1 (stereo not drawn) [Compound 78] | 32 | 0.25 | 32 | 0.25
16 | COc1ccc(N(C(=O)Nc2ccc(F)cc2)C(C)c2nc3cc(C#N)ccc3c(=O)n2N2CCN(C)CC2)c(OC)c1 (stereo not drawn) [Compound 79] | > 32 | 0.5 | > 32 | 2
17 | COC(=O)c1ccc2c(=O)n(N3CCN(C)CC3)c(C(C)N(C(=O)Nc3ccc(F)cc3)c3ccc(OC)cc3OC)nc2c1 (stereo not drawn) [Compound 80] | > 32 | 32 | > 32 | 2
18 | COc1ccc(N(C(=O)Nc2ccc(F)cc2)C(C)c2nc3cc(F)ccc3c(=O)n2N2CCN(C)CC2)c(OC)c1 (stereo not drawn) [Compound 81] | – | 0.5 | – | 1

Row | Compound | MIC [1] [µg/mL] | MPC8 = concentration of efflux pump inhibitor necessary to reduce the fluconazole MIC 8-fold [1] [µg/mL] | MIC [2] [µg/mL] | MPC8 [2] [µg/mL]
19 | COc1ccc(N(C(=O)Nc2ccc(F)cc2)C(C)c2nc3c(OC)cccc3c(=O)n2N2CCN(C)CC2)c(OC)c1 (stereo not drawn) [Compound 82] | > 32 | 8 | > 32 | 8
20 | COc1ccc(N(C(=O)Nc2ccc(Cl)cc2)C(C)c2nc3c(OC)cccc3c(=O)n2N2CCN(C)CC2)c(OC)c1 (stereo not drawn) [Compound 83] | > 32 | 4 | > 32 | 2
21 | COc1ccc(N(C(=O)Nc2ccc(F)cc2)C(C)c2nc3ccc(O)cc3c(=O)n2N2CCN(C)CC2)c(OC)c1 (stereo not drawn) [Compound 84] | > 32 | 16 | > 32 | 1
22 | COc1ccc(N(C(=O)Nc2ccc(F)cc2)C(C)c2nc3ccccc3c(=O)n2N2CCN(C(=O)OC(C)(C)C)CC2)c(OC)c1 (stereo not drawn) [Compound 85] | > 32 | 0.5 | > 32 | 0.25
23 | COc1ccc(N(C(=O)Nc2cccc(Cl)c2)C(C)c2nc3ccccc3c(=O)n2N2CCN(C(=O)OC(C)(C)C)CC2)c(OC)c1 (stereo not drawn) [Compound 86] | > 32 | 1 | > 32 | 2
24 | COc1ccc(N(C(=O)Nc2ccc(F)cc2)C(C)c2nc3ccccc3c(=O)n2N2CCN(C(=O)OC(C)(C)C)CC2)c(OC)n1 (stereo not drawn) [Compound 87] | > 32 | 0.5 | > 32 | 2
25 | COc1ccc(N(C(=O)Nc2ccccc2)C(C)c2nc3ccccc3c(=O)n2N2CCN(C(=O)OC(C)(C)C)CC2)c(OC)c1 (stereo not drawn) [Compound 88] | > 32 | 1 | > 32 | 0.5
26 | COc1ccc(N(C(=O)Nc2cccc(F)c2)C(C)c2nc3ccccc3c(=O)n2N2CCN(C(=O)OC(C)(C)C)CC2)c(OC)c1 (stereo not drawn) [Compound 89] | > 32 | 2 | > 32 | 2
27 | CC(c1nc2ccccc2c(=O)n1N1CCN(C(=O)OC(C)(C)C)CC1)N(C(=O)Nc1ccc(F)cc1)c1ccc(F)cc1F (stereo not drawn) [Compound 90] | > 32 | 0.125 | > 32 | 4
28 | CCOC(=O)N1CCN(n2c(C(C)N(C(=O)Nc3cccc(Cl)c3)c3ccc(OC)cc3OC)nc3ccc(Cl)cc3c2=O)CC1 (stereo not drawn) [Compound 91] | > 32 | 2 | > 32 | 16
29 | COc1ccc(N(C(=O)Nc2ccc(F)cc2)C(C)c2nc3ccc(F)cc3c(=O)n2N2CCN(C(=O)OC(C)(C)C)CC2)c(OC)c1 (stereo not drawn) [Compound 93] | > 32 | 4 | > 32 | 1
30 | CCOC(=O)N1CCN(n2c(C(C)N(C(=O)Nc3ccc(F)cc3)c3ccc(OC)cc3OC)nc3cc(C#N)ccc3c2=O)CC1 (stereo not drawn) [Compound 94] | > 32 | 2 | > 32 | 0.5
31 | CCOC(=O)N1CCN(n2c(C(C)N(C(=O)Nc3ccc(Cl)cc3)c3ccc(OC)cc3OC)nc3c(OC)cccc3c2=O)CC1 (stereo not drawn) [Compound 96] | > 32 | 32 | > 32 | 8
32 | COc1ccc(N(C(=O)Nc2ccc(F)cc2)C(C)c2nc3ccccc3c(=O)n2N2CCN(C(=O)OCCn3ccnc3)CC2)c(OC)c1 (stereo not drawn) [Compound 97] | > 32 | 0.25 | > 32 | 0.5
33 | COc1ccc(N(C(=O)Nc2ccc(F)cc2)C(C)c2nc3ccccc3c(=O)n2N2CCN(C(=O)OCCN3CCCC3)CC2)c(OC)c1 (stereo not drawn) [Compound 98] | > 32 | 8 | > 32 | 0.5
34 | COc1ccc(N(C(=O)Nc2ccc(F)cc2)C(C)c2nc3ccccc3c(=O)n2N2CCN(C(=O)OCCN3CCC(O)C3)CC2)c(OC)c1 (stereo not drawn) [Compound 99] | > 32 | 16 | > 32 | 1
35 | COc1ccc(N(C(=O)Nc2ccc(F)cc2)C(C)c2nc3ccccc3c(=O)n2N2CCN(C(=O)OCCN3CCCCC3)CC2)c(OC)c1 (stereo not drawn) [Compound 100] | > 32 | 1 | > 32 | 0.25
